Pooled drug test results. Numbers come from NIAID ChemDB, via PubChem.

Shared fields: host cell toxicity; cells: VERO; endpoint: CC50

Blank or dashed fields: not listed here. CCn: concentration that lowers growth or viability of the cells by n%. Lines come from different laboratories, so protocols vary.

{"smiles": "CCCCS(=O)(=O)Nc1ccc2[nH]c(C(=O)NCc3cccc(C)c3)c(C)c2c1", "read by": "resazurin", "value": ">120 µM"}
{"smiles": "Nc1nc(=O)n([C@H]2C[C@H](O)[C@@H](CO)O2)cc1C#CCOCc1ccc2c3cccc4cccc(c5cccc1c52)c43", "read by": "MTT", "value": ">20 µM"}
{"smiles": "Cc1ccccc1NC(=O)c1cccc2[nH]c(-c3ccncc3)nc12", "value": "27.8 µg/mL"}
{"smiles": "CCCCS(=O)(=O)Nc1ccc2[nH]c(C(=O)N3CCCCCC3)c(C)c2c1", "read by": "resazurin", "value": "130 µM"}
{"smiles": "Cc1cn2c(C(=O)NCc3ccc(N(C)C)cc3)c(C)nc2s1", "read by": "fluorescence", "value": ">100 µM"}
{"smiles": "CCCCS(=O)(=O)Nc1ccc2[nH]c(CO)c(C)c2c1", "read by": "resazurin", "value": ">170 µM"}
{"smiles": "Cc1cn2c(C(=O)NCc3ccccc3C(F)(F)F)c(C)nc2s1", "read by": "fluorescence", "value": "73 µM"}
{"smiles": "CCOC(=O)c1cc(COc2cccc3cccnc23)on1", "value": ">128 µM"}
{"smiles": "C/C1=C\\C=C\\C2(C)C=C(CO)C(C)CC23OC([O-])C(C3=O)C(O)/C=C/C2(C)C=C(CO)C(C)CC23OC([O-])C(C3=O)C(O)/C(C)=C/C=C/C2C=C(CO)C(C)CC23OC([O-])C(C3=O)C(O)/C=C/C2(C)C=C(C=O)C(C)CC23OC([O-])C(C3=O)C1O", "value": ">100 µg/mL"}
{"smiles": "CCCCS(=O)(=O)Nc1ccc2[nH]c(C(N)=O)c(C)c2c1", "read by": "resazurin", "value": ">160 µM"}
{"smiles": "O=C(Nc1ccccc1)c1cccc2[nH]c(-c3ccccn3)nc12", "value": "55.6 µg/mL"}
{"smiles": "Cc1c(CN2CCSCC2)cc(-c2ccccc2)n1-c1ccc(Cl)cc1", "value": "8 µg/mL"}
{"smiles": "CCCCS(=O)(=O)Nc1ccc2[nH]c(C(=O)NCC)c(C)c2c1", "read by": "resazurin", "value": ">150 µM"}
{"smiles": "CC(C)c1ccc(NC(=O)N2CCC[C@H]2C(=O)N2CC[C@H]3[C@H]2[C@H](C)C(=O)N3C(=O)c2ccc([N+](=O)[O-])cc2)cc1", "value": "69 µM"}
{"smiles": "Cc1cn2c(C(=O)NCc3ccc(N4CCOCC4)c(F)c3)c(C)nc2s1", "read by": "fluorescence", "value": ">100 µM"}
{"smiles": "O=C(O)c1cn(C2CC2)c2cc(N3CCN(Cc4ccc5c(c4)OCO5)CC3)c(F)cc2c1=O", "value": ">134.3 µM"}
{"smiles": "CC(C)=CCCC1(C)C=Cc2c(ccc(C(=O)/C=C/c3ccc(O)c(C=O)c3)c2O)O1", "read by": "MTT", "value": "9.904 µM"}
{"smiles": "Cc1cn2c(C(=O)NCc3cccc(F)c3)c(C)nc2s1", "read by": "fluorescence", "value": ">100 µM"}
{"smiles": "O=C(OCCC(F)(F)F)c1cc(COc2cc(C(F)(F)F)nc3c(C(F)(F)F)cccc23)on1", "value": ">128 µM"}
{"smiles": "Cc1ccc2[nH]c(O)c(N=NC(=S)Nc3cccc(Br)c3)c2c1", "read by": "MTT", "value": "0.704 µg/mL"}
{"smiles": "O=c1[nH]c(=O)n([C@H]2C[C@H](O)[C@@H](CO)O2)cc1-n1cc(-c2cc3cccc4c5cccc6cccc(c(c2)c34)c65)nn1", "read by": "MTT", "value": ">20 µM"}
{"smiles": "Oc1[nH]c2ccc(OC(F)(F)F)cc2c1N=NC(=S)Nc1ccc(F)cc1", "read by": "MTT", "value": "2.536 µg/mL"}
{"smiles": "O=C(Nc1ccccc1F)c1cccc2[nH]c(-c3ccncc3)nc12", "value": "12.3 µg/mL"}
{"smiles": "COc1nc(F)nc2c1ncn2[C@H]1C[C@H](N=[N+]=[N-])[C@@H](CO)O1", "read by": "MTS", "value": ">100 µM"}
{"smiles": "Cc1c(CN2CCN(C)CC2)cc(-c2ccc(Cl)cc2)n1-c1ccc(Cl)cc1", "value": "4 µg/mL"}
{"smiles": "Cc1ccc2[nH]c(O)c(N=NC(=S)Nc3ccc(Cl)cc3)c2c1", "read by": "MTT", "value": "12.4 µg/mL"}
{"smiles": "C/C1=C\\C=C\\C2(C)C=C(CO[C@H]3O[C@H](CO)[C@H](O)[C@H](O)[C@H]3O)C(C)CC23OC([O-])C(C3=O)C(O)/C=C/C2(C)C=C(C=O)C(C)CC23OC([O-])C(C3=O)C(O)/C(C)=C/C=C/C2C=C(CO[C@H]3O[C@H](CO)[C@H](O)[C@H](O)[C@H]3O)C(C)CC23OC([O-])C(C3=O)C(O)/C=C/C2(C)C=C(C=O)C(C)CC23OC([O-])C(C3=O)C1O", "value": ">100 µg/mL"}
{"smiles": "CCOC(=O)c1cc(COc2cccc3ncccc23)on1", "value": ">128 µM"}
{"smiles": "Cc1ccc2[nH]c(O)c(N=NC(=S)Nc3ccc(F)cc3)c2c1", "read by": "MTT", "value": "<0.195 µg/mL"}
{"smiles": "C[C@@H]1CC[C@H]2C(C)(C)[C@H](O)CC[C@]2(C)C12Cc1c(O)cc3c(c1O2)COC3=O", "value": ">50 µg/mL"}
{"smiles": "C/C1=C\\C=C\\C2(C)C=C(CO)C(C)CC23OC([O-])C(C3=O)C(O)/C=C/C2(C)C=C(C=O)C(C)CC23OC([O-])C(C3=O)C(O)/C(C)=C/C=C/C2C=C(CO)C(C)CC23OC([O-])C(C3=O)C(O)/C=C/C2(C)C=C(C=O)C(C)CC23OC([O-])C(C3=O)C1O", "value": ">100 µg/mL"}
{"smiles": "Cc1cn2c(C(=O)NCc3ccc(N4CCOCC4)cc3)c(C)nc2s1", "read by": "fluorescence", "value": "98 µM"}
{"smiles": "[N-]=[N+]=N[C@H]1C[C@H](n2cnc3c(N)nc(Cl)nc32)O[C@@H]1CO", "read by": "MTS", "value": ">100 µM"}
{"smiles": "Nc1nc(=O)n([C@@H]2CC[C@H](CO)O2)cc1F", "value": ">125 µM"}
{"smiles": "CCCCS(=O)(=O)Nc1ccc2[nH]c(C(=O)N3CCN(C(=O)OC(C)(C)C)CC3)c(C)c2c1", "read by": "resazurin", "value": "52 µM"}
{"smiles": "CCc1noc(-c2cc(COc3cc(C(F)(F)F)nc4c(C(F)(F)F)cccc34)on2)n1", "value": ">128 µM"}
{"smiles": "[N-]=[N+]=N[C@H]1C[C@H](n2cnc3c(NC4CC4)nc(Cl)nc32)O[C@@H]1CO", "read by": "MTS", "value": ">100 µM"}
{"smiles": "O=C(O)c1cn(C2CC2)c2cc(N3CCC(N4CCCCC4)CC3)c(F)cc2c1=O", "value": ">151.1 µM"}
{"smiles": "NC(=O)c1cc(COc2cc(C(F)(F)F)nc3c(C(F)(F)F)cccc23)on1", "value": ">128 µM"}
{"smiles": "O=c1[nH]c(=O)n([C@H]2C[C@H](O)[C@@H](CO)O2)cc1C#CC#Cc1cc2cccc3ccc4cccc1c4c32", "read by": "MTT", "value": ">20 µM"}
{"smiles": "CC(C)=CCCC1(C)C=Cc2ccc(O)c(C(=O)/C=C/c3ccc(O)c(C=O)c3)c2O1", "read by": "MTT", "value": "31.7 µM"}
{"smiles": "COc1cc(O)c2c(=O)c3cccc(OC)c3[nH]c2c1", "value": ">50 µM"}
{"smiles": "CC(=O)OCc1cc(COc2cc(C(F)(F)F)nc3c(C(F)(F)F)cccc23)on1", "value": ">128 µM"}
{"smiles": "Nc1ccn(C[C@@H](CO)OCP(=O)(O)O)c(=O)n1", "value": "100 µg/mL"}
{"smiles": "O=C(Nc1ccc([N+](=O)[O-])cc1)c1cccc2[nH]c(-c3ccncc3)nc12", "value": "55.5 µg/mL"}
{"smiles": "CC(C)(C)C(=O)OCn1c(=O)c(C#Cc2ccc3c4cccc5cccc(c6cccc2c63)c54)cn(CC(=O)O)c1=O", "read by": "MTT", "value": ">20 µM"}
{"smiles": "CC(C)[C@@H]1NC(=O)[C@@H](C(C)C)OC(=O)[C@H](C(C)C)N(C)C(=O)[C@@H](C(C)C)OC(=O)[C@H](C(C)C)N(C)C(=O)[C@@H](C(C)C)OC1=O", "read by": "absorbance", "value": "13 µM"}
{"smiles": "Oc1c(N=NC(=S)Nc2ccc(F)cc2)c2cc(OC(F)(F)F)ccc2n1CN1CCOCC1", "read by": "MTT", "value": "2.396 µg/mL"}
{"smiles": "CCCCS(=O)(=O)Nc1ccc2[nH]c(C(=O)NCc3cccc(Cl)c3)c(C)c2c1", "read by": "resazurin", "value": ">110 µM"}
{"smiles": "Oc1c(N=NC(=S)Nc2ccc(Br)cc2)c2cc(OC(F)(F)F)ccc2n1CN1CCOCC1", "read by": "MTT", "value": "7.453 µg/mL"}
{"smiles": "CC(C)c1ccc(NC(=O)N2CCC[C@H]2C(=O)N2CC[C@H]3[C@H]2[C@H](C)C(=O)N3C(=O)c2nccs2)cc1", "value": "280 µM"}
{"smiles": "COc1cc2c(cc1OC)CN(c1nc3c(cc1[N+](=O)[O-])c(=O)c(C(=O)O)cn3C1CC1)CC2", "value": ">142.5 µM"}
{"smiles": "CCCCS(=O)(=O)Nc1ccc2[nH]c(C(=O)N3CCOCC3)c(C)c2c1", "read by": "resazurin", "value": ">130 µM"}
{"smiles": "CC(C)(C)n1cc(C(=O)O)c(=O)c2cc([N+](=O)[O-])c(N3CCn4cc(C(=O)O)nc4C3)cc21", "value": "145.9 µM"}
{"smiles": "CCCCCS(=O)(=O)Nc1ccc2[nH]c(C(N)=O)c(C)c2c1", "read by": "resazurin", "value": "39 µM"}

5 of the rows above, restated:

smiles | read by | value
C/C1=C\C=C\C2(C)C=C(CO)C(C)CC23OC([O-])C(C3=O)C(O)/C=C/C2(C)C=C(C=O)C(C)CC23OC([O-])C(C3=O)C(O)/C(C)=C/C=C/C2C=C(CO)C(C)CC23OC([O-])C(C3=O)C(O)/C=C/C2(C)C=C(C=O)C(C)CC23OC([O-])C(C3=O)C1O | - | >100 µg/mL
CCCCCS(=O)(=O)Nc1ccc2[nH]c(C(N)=O)c(C)c2c1 | resazurin | 39 µM
Cc1c(CN2CCN(C)CC2)cc(-c2ccc(Cl)cc2)n1-c1ccc(Cl)cc1 | - | 4 µg/mL
C/C1=C\C=C\C2(C)C=C(CO)C(C)CC23OC([O-])C(C3=O)C(O)/C=C/C2(C)C=C(CO)C(C)CC23OC([O-])C(C3=O)C(O)/C(C)=C/C=C/C2C=C(CO)C(C)CC23OC([O-])C(C3=O)C(O)/C=C/C2(C)C=C(C=O)C(C)CC23OC([O-])C(C3=O)C1O | - | >100 µg/mL
CCCCS(=O)(=O)Nc1ccc2[nH]c(CO)c(C)c2c1 | resazurin | >170 µM